Anti-infective test results gathered from many reports (values: NIAID ChemDB through PubChem).

Common to all: tests in culture; agent: HIV-1

Fold resistance: result on the changed form divided by that on wild type. Conditions beyond the fields shown may differ between rows. ECn: concentration that inhibits the pathogen or its effect by n%. An empty or dashed field is not shown.

SMILES | endpoint | cells | strain | mutations | read by | result
Cc1cc(S(N)(=O)=O)ccc1NC(=O)COc1ccc(Cl)cc1C(=O)c1cccc(C#N)c1 | fold resistance | HeLa + HELA CD4+ | HXB2 | RT-V106A Y181C | β-galactosidase | ~10
COc1ccnc2[nH]cc(C(=O)C(=O)N3C4CCCC3CN(C(=O)c3ccccc3)C4)c12 | EC90 | TZM-bl | SF162 | - | luciferase | 42 µM
O=C(c1ccccc1)N(CCc1ccccc1)C[C@H](O)CN(CC1CCCC1)S(=O)(=O)Cc1cnco1 | EC90 | CEM | IIIB | - | p24 | 1 µM
CC(C)C1=C2[C@H]3CC[C@@H]4[C@@]5(C)CC[C@H](OC(=O)[C@H]6C[C@@H](C(=O)O)C6(C)C)C(C)(C)[C@@H]5CC[C@@]4(C)[C@]3(C)CC[C@@]2(CCNCc2ccc(F)cc2)CC1=O | EC50 | MT-2 | 92HT599 | - | p24 / ELISA | <1 µM
COc1ccc(S(=O)(=O)N(CC(C)C)C[C@@H](O)CCN(CC2CCCC2)S(=O)(=O)C2CCCOC2)cc1 | EC90 | CEM | IIIB | - | p24 | 1 µM
Cc1ccc(C)n1-c1ccc(C(=O)O)c(O)c1 | EC90 | PBMC/5.25M7 | BCF02 R5 GROUP O | - | luciferase / cell fusion | 10.89 µM
CC(C)C1=C2[C@H]3CC[C@@H]4[C@@]5(C)CC[C@H](OC(=O)[C@H]6C[C@@H](C(=O)O)C6(C)C)C(C)(C)[C@@H]5CC[C@@]4(C)[C@]3(C)CC[C@@]2([C@@H](O)CNCc2ccc(N3CCCCC3)cc2)CC1=O | EC50 | MT-2 | 92HT599 | - | p24 / ELISA | <1 µM
Cc1cc(S(N)(=O)=O)ccc1NC(=O)COc1ccc(Cl)cc1C(=O)c1cc(F)cc(C(F)(F)F)c1 | fold resistance | MT-4 | Nevirapine-resistant (RT Y181C) | RT-Y181C | cytopathic effect / propidium iodide | ~1
CN1CCn2c(nc(C(=O)NCc3ccc(F)cc3)c(O)c2=O)C12CCOCC2 | EC95 | MT-4 | - | - | p24 | <1 µM
CC(C)C1=C2[C@H]3CC[C@@H]4[C@@]5(C)CC[C@H](OC(=O)[C@H]6C[C@@H](C(=O)O)C6(C)C)C(C)(C)[C@@H]5CC[C@@]4(C)[C@]3(C)CC[C@@]2([C@@H](O)CNC(=O)C(C)(C)NC(=O)c2ccc(Cl)cc2OCCN2CCS(=O)(=O)CC2)CC1=O | EC50 | MT-2 | 92HT599 | - | p24 / ELISA | <1 µM
O=C(N[C@@H](Cc1ccccc1)C(=O)C(F)(F)N(Cc1ccccc1)S(=O)(=O)c1ccccc1)OC1COCOC1 | EC90 | CEM | IIIB | - | p24 | 1 µM
CC(C)C1=C2[C@H]3CC[C@@H]4[C@@]5(C)CC[C@H](OC(=O)[C@H]6C[C@@H](C(=O)O)C6(C)C)C(C)(C)[C@@H]5CC[C@@]4(C)[C@]3(C)CC[C@@]2(CC(=O)NCC2(N)CCCCC2)CC1=O | EC50 | MT-2 | 92HT599 | - | p24 / ELISA | <1 µM
O=C(O)CN1CCn2c(nc(C(=O)NCc3ccc(F)cc3)c(O)c2=O)C1 | EC95 | MT-4 | - | - | p24 | <50 µM
COc1ccnc2[nH]cc(C(=O)C(=O)N3C4CC3CN(C(=O)c3ccccc3)C4)c12 | EC90 | TZM-bl | PVO | - | luciferase | >250 µM
CC(C)C1=C2[C@H]3CC[C@@H]4[C@@]5(C)CC[C@H](OC(=O)[C@H]6C[C@@H](C(=O)O)C6(C)C)C(C)(C)[C@@H]5CC[C@@]4(C)[C@]3(C)CC[C@@]2([C@@H](O)CNC(=O)[C@@H]2CCCCN2)CC1=O | EC50 | MT-2 | 92HT599 | - | p24 / ELISA | <1 µM
CCN(CC)CCN1CCn2c(nc(C(=O)NCc3ccc(F)cc3)c(O)c2=O)C1(C)C | EC95 | MT-4 | - | - | p24 | <1 µM
Cc1cc(C#N)cc(C(=O)c2cc(Cl)ccc2OCC(=O)Nc2ccc(S(N)(=O)=O)cc2C)c1 | fold resistance | HeLa + HELA CD4+ | HXB2 | RT-G190A | β-galactosidase | ~1
CC(C)C1=C2[C@H]3CC[C@@H]4[C@@]5(C)CC[C@H](OC(=O)[C@H]6C[C@@H](C(=O)O)C6(C)C)C(C)(C)[C@@H]5CC[C@@]4(C)[C@]3(C)CC[C@@]2(CCNCC(C)(C)NC(=O)c2ncc[nH]2)CC1=O | EC50 | MT-2 | 92HT599 | - | p24 / ELISA | <1 µM
Cc1cc(C)cc(C(=O)c2cc(Cl)ccc2OCC(=O)Nc2ccc(S(N)(=O)=O)cc2C)c1 | fold resistance | HeLa + HELA CD4+ | HXB2 | RT-V106I | β-galactosidase | ~1
Cc1ccc(C(=O)NC(C)(C)C(=O)NC[C@H](O)[C@@]23CC[C@]4(C)[C@H](CC[C@@H]5[C@@]6(C)CC[C@H](OC(=O)[C@H]7C[C@@H](C(=O)O)C7(C)C)C(C)(C)[C@@H]6CC[C@]54C)C2=C(C(C)C)C(=O)C3)nc1 | EC50 | MT-2 | 92HT599 | - | p24 / ELISA | <1 µM
Cc1cc(S(N)(=O)=O)ccc1NC(=O)COc1ccc(Cl)cc1C(=O)c1cc(Cl)cc(C#N)c1 | fold resistance | MT-4 | Nevirapine-resistant (RT Y181C) | RT-Y181C | cytopathic effect / propidium iodide | ~1
CC(C)C1=C2[C@H]3CC[C@@H]4[C@@]5(C)CC[C@H](OC(=O)[C@H]6C[C@@H](C(=O)O)C6(C)C)C(C)(C)[C@@H]5CC[C@@]4(C)[C@]3(C)CC[C@@]2([C@@H](O)CNC(=O)C(CCCN)NC(=O)c2ccc(Cl)cc2)CC1=O | EC50 | MT-2 | 92HT599 | - | p24 / ELISA | <1 µM
Cc1cc(OCCCS(N)(=O)=O)ccc1NC(=O)COc1ccc(Cl)cc1C(=O)c1cc(F)cc(C(F)(F)F)c1 | EC50 | HeLa + HELA CD4+ | HXB2 | RT-E138K | β-galactosidase | <0.01 µM
COc1ccc(S(=O)(=O)N(CCc2ccccc2)CC[C@H](O)CN(CC(C)C)S(=O)(=O)c2ccc(OC)cc2)cc1 | EC90 | CEM | IIIB | - | p24 | 1 µM
CC(C)CN(C(=O)C(=O)N(C)C)C1CN(C)CCn2c1nc(C(=O)NCc1ccc(F)cc1)c(O)c2=O | EC95 | MT-4 | - | - | p24 | <1 µM
Cc1cc(S(N)(=O)=O)ccc1NC(=O)COc1ccc(Cl)cc1C(=O)c1cc(F)cc(F)c1 | fold resistance | HeLa + HELA CD4+ | HXB2 | RT-Y188C | β-galactosidase | ~1
CN1CCn2c(nc(C(=O)NCc3ccc(F)c(Cl)c3)c(O)c2=O)C1(C)C | EC95 | MT-4 | - | - | p24 | <1 µM
Cc1cc(S(N)(=O)=O)ccc1NC(=O)COc1ccc(Cl)cc1C(=O)c1cccc(C#N)n1 | fold resistance | HeLa + HELA CD4+ | HXB2 | RT-G190A | β-galactosidase | ~1

Repeating the first 2 entries:

SMILES	endpoint	cells	strain	mutations	read by	result
Cc1cc(S(N)(=O)=O)ccc1NC(=O)COc1ccc(Cl)cc1C(=O)c1cccc(C#N)c1	fold resistance	HeLa + HELA CD4+	HXB2	RT-V106A Y181C	β-galactosidase	~10
COc1ccnc2[nH]cc(C(=O)C(=O)N3C4CCCC3CN(C(=O)c3ccccc3)C4)c12	EC90	TZM-bl	SF162	-	luciferase	42 µM